Earlier results on one substance are cited in patent US20230127499A1, “PEPTIDES AND ADJUVANTS FOR AU[…] […] FOR CORONAVIRUS” (FIGENE, LLC, priority 2020, published 2023).

For the data set, the system named is patients. The conditions noted are these: administered systemically as a cancer therapeutic; some patients; cited from earlier work.

In the case of TNF-alpha, the adverse effects entry was “ARDS-type pathology”.
